Anti-infective test results gathered from many reports (values: NIAID ChemDB through PubChem).

All rows: host cell toxicity; read-out: CC50

Rows are shuffled and stem from different studies. CCn is the concentration with n% toxicity to the cells. An empty or dashed field is not shown.

smiles	cells	read by	value
NC(=O)c1ncn([C@@H]2O[C@H](CO)[C@@H](O)[C@H]2O)n1	PRK/E6SM		>400 µg/mL
C=CCC(O)c1cc(C23CC4CC(CC(C4)C2)C3)c2ccccc2n1	Mouse fibroblasts	MTT / absorbance	>200 µg/mL
Nc1ccn(C[C@@H](CO)OCP(=O)(O)O)c(=O)n1	P3HR-1		28 µg/mL
O=c1[nH]cnc2c1ncn2[C@H]1O[C@@H](CO)C[C@H]1F	PBM		>100 µM
OCCc1ccc(O[C@@H]2O[C@H](CO)[C@@H](O)[C@H](O)[C@H]2O)c(O)c1	HL-60	MTT	22.43 µM
COC1CCCC(c2cc(C(=O)NN)nc3ccccc23)C1	Mouse fibroblasts	MTT / absorbance	>200 µg/mL
COC1=CC23CCCN2CCc2cc4c(cc2C3C1O)OCO4	HepG2 2.2.15		>100 µM
O=C(CCCCCCC(=O)Nc1ccccc1)NO	J-Lat 10.6	MTT	0.77 µM
NNC(=O)c1cc(CC2CC3CCC2C3)c2ccccc2n1	Mouse fibroblasts	MTT / absorbance	>200 µg/mL
CCCOC(=O)C(CCSC[C@H]1O[C@@H](n2ccc3c(N)ncnc32)[C@H](O)[C@@H]1O)NC(=O)C(F)(F)F	PRK/E6SM		>40 µg/mL
O=c1[nH]c(=O)n([C@@H]2O[C@@H](CO)C[C@H]2F)cc1Br	PBM		>100 µM
CCOC(=O)c1ccc2c(c1)nc(-c1ccc(C(=O)O)cc1)n2CCN1CCCOC1	Vero cell	MTT	>62.5 µg/mL
CC(C)=CC[C@H]1C[C@@]2(C[C@H]3CCC(C)(C)C=C3C)C(=O)[C@](C(=O)c3ccccc3)(C(=O)C3=C2OC(C)(C)C=C3)C1(C)C	HT-29	sulforhodamine / absorbance	>50 µM
O=C1NC(=O)C(c2ccccc2)(c2ccccc2)N1	THP-1		>40 µg/mL
NNC(=O)c1cc(C2CCC(C(F)(F)F)CC2)c2ccccc2n1	Mouse fibroblasts	MTT / absorbance	>200 µg/mL
COc1cc([C@@H]2c3cc4c(cc3[C@H](OC(C)=O)[C@@H]3COC(=O)[C@@H]23)OCO4)cc(OC)c1OC	HT-29		0.55 µM
Nc1ncc2c(ncn2COC(CO)CO)n1	P3HR-1		0.3 µg/mL
CCOC(=O)c1ccc2c(c1)nc(-c1ccc(C(F)(F)F)cc1)n2CCN1CCCOC1	Vero cell	MTT	>62.5 µg/mL
OCCc1ccc(O)c(O)c1	HL-60	MTT	9.02 µM
Nc1nc(F)nc2c1ncn2/C=C1/CC1CO	H-1		8.5 µM
O=c1[nH]c(=O)n([C@H]2O[C@@H](CO)C[C@H]2F)cc1I	PBM		>100 µM
Nc1nc(=O)n(CC#CCO)cc1F	2.2.15		>100 µM
CCOC(=O)C(CCSC[C@H]1O[C@@H](n2ccc3c(N)ncnc32)[C@H](O)[C@@H]1O)NC(=O)C(F)(F)F	PRK/E6SM		100 µg/mL
Cc1cn([C@H]2C[C@H](NC(=O)NCCCCCNc3ccnc4cc(Cl)ccc34)[C@H](CO)O2)c(=O)[nH]c1=O	HeLa cells	MTT	>100 µM
COc1cc([C@H]2OC[C@H]3[C@@H]2CO[C@H]3c2ccc3c(c2)OCO3)cc2c1OCO2	HOG.R5		23 µg/mL
COC(=O)[C@@H]1[C@H](c2cc(OC)c3nc4ccccc4nc3c2)c2cc3c(cc2C2=NOC[C@@H]21)OCO3	A549		10 µM
CC(C)OC(=O)C(CCSC[C@H]1O[C@@H](n2ccc3c(N)ncnc32)[C@H](O)[C@@H]1O)NC(=O)C(F)(F)F	PRK/E6SM		200 µg/mL
Nc1ccn(C[C@H]2COP(=O)(O)CO2)c(=O)n1	P3HR-1		18 µg/mL
Nc1ncnc2c1ncn2CCOCP(=O)(O)O	BCBL-1		22 µg/mL
Nc1nc(N)c2ncn(C[C@@H](CF)OCP(=O)(O)O)c2n1	P3HR-1		>100 µg/mL
Cc1cn([C@H]2C[C@H](NC(=O)NCCCCCNc3ccnc4cc(Cl)ccc34)[C@H](CO[Si](c3ccccc3)(c3ccccc3)C(C)(C)C)O2)c(=O)[nH]c1=O	HeLa cells	MTT	36.13 µM
CCc1nc(N)nc(N)c1-c1ccc(Cl)cc1	Vero cell	MTT	>62.5 µg/mL
O=c1[nH]c(=O)n([C@H]2O[C@@H](CO)C[C@H]2F)cc1Cl	PBM		>100 µM
COc1cc([C@@H]2c3cc4c(cc3[C@H](OC(C)=O)[C@@H]3COC(=O)[C@H]23)OCO4)cc2c1OCO2	MEL-28		2.27 µM
C[C@H]1c2ccoc2C[C@H]2[C@H]1[C@@H](O)[C@@H](OC(=O)/C=C/c1ccccc1)[C@@]1(O)C(C)(C)CCC[C@]21C	NCI-H187		6.2 µg/mL
NC(=O)c1ncn([C@@H]2O[C@H](CO)[C@@H](O)[C@H]2O)n1	LLC-MK2	MTT / neutral red	65 µg/mL
O=c1c(O)c(-c2ccc(O)c(O)c2)oc2cc(O)cc(O)c12	BCC-1/KMC		496.9 µg/mL
CCCOC(=O)C(CCSC[C@H]1O[C@@H](n2ccc3c(N)ncnc32)[C@H](O)[C@@H]1O)NC(=O)COC	PRK/E6SM		200 µg/mL
COc1cc(/C=C/C(=O)O[C@H]2[C@H](O)[C@@H](OC3OCC(O)(CO)C3O)[C@H](OCCc3ccc(O)cc3)O[C@@H]2CO)ccc1O	HL-60	MTT	5.15 µM
CC(C)=CC[C@H]1C[C@]2(C[C@H]3CCC(C)(C)C=C3C)C(=O)C3=C(OC(C)(C)CC3)[C@@](C(=O)c3ccccc3)(C2=O)C1(C)C	HT-29	sulforhodamine / absorbance	>50 µM
COc1cc([C@@H]2c3cc4c(cc3[C@H](OC(C)=O)[C@@H]3COC(=O)[C@@H]23)OCO4)cc2c1OC1(N3CCCC3)CCCCC1O2	HT-29		2.02 µM
C[C@@H](Cn1cnc2c(NCCN(C)C)ncnc21)OCP(=O)(O)O	P3HR-1		21 µg/mL
O=c1c2cc(O)ccc2oc2cc(O)cc(O)c12	1A2	XTT / absorbance	323 µM
Nc1[nH]c(=O)nc2c1ncn2/C=C1/C[C@@H]1CO	H-1		61 µM
COc1ccc(-c2cc(OC)c(O)c(OC)c2O)cc1	HT-29	sulforhodamine / absorbance	>50 µM
CO[C@H]1/C=C/O[C@@]2(C)Oc3c(C)c(O)c4c(O)c(c(/C=N/N5CCN(C)CC5)c(O)c4c3C2=O)NC(=O)/C(C)=C\C=C\[C@H](C)[C@H](O)[C@@H](C)[C@@H](O)[C@@H](C)[C@H](OC(C)=O)[C@@H]1C	Mouse fibroblasts	MTT / absorbance	>200 µg/mL
O=c1ccn([C@@H]2O[C@@H](CO)C[C@H]2F)c(=O)[nH]1	PBM		>100 µM
CC1CCCCC1c1cc(C(=O)NN)nc2ccccc12	Mouse fibroblasts	MTT / absorbance	>200 µg/mL
Nc1nc(N)c2ncn([C@H]3CO[C@@H](CO)O3)c2n1	CBMC		>500 µM
CCOC(=O)c1ccc2c(c1)nc(-c1ccc(OC(F)(F)F)cc1)n2CCN1CCCC1=O	Vero cell	MTT	>62.5 µg/mL
COc1ccc(/C=C(\C#N)c2nc3ccccc3[nH]2)cc1O	293T	MTS	>50 µM
Nc1ccn(CC#CCO)c(=O)n1	2.2.15		>100 µM
Cc1cn([C@H]2C[C@H](N=[N+]=[N-])[C@H](CO)O2)c(=O)n(CCNc2ccnc3cc(Cl)ccc23)c1=O	HeLa cells	MTT	>100 µM
C[C@@H]1O[C@@H](O[C@@H]2[C@@H](O)[C@H](OCCc3ccc(O)c(O)c3)O[C@H](CO)[C@H]2OC(=O)/C=C/c2ccc(O)c(O)c2)[C@H](O)[C@H](O)[C@H]1O	MDA-MB-231	MTT	5.56 µM
Nc1ncnc2c1c(Br)cn2[C@@H]1O[C@H](CO)[C@@H](O)[C@H]1O	PRK		0.4 µg/mL
COc1cc([C@@H]2c3cc4c(cc3[C@H](OC(C)=O)[C@@H]3COC(=O)[C@H]23)OCO4)cc(OC)c1O	P-388		0.11 µM
CC1CCC(c2cc(C(=O)NN)nc3ccccc23)CC1	Mouse fibroblasts	MTT / absorbance	>200 µg/mL
COC(=O)[C@@H]1[C@H](c2cc(OC)c3nc4cc(C)c(C)cc4nc3c2)c2cc3c(cc2C2=NOC[C@@H]21)OCO3	MEL-28		1 µM
OCc1cccc(Nc2ccnc3cc(Cl)ccc23)c1	HeLa cells	MTT	>100 µM
CCOC(=O)c1ccc2c(c1)nc(-c1cccc(-c3ccc(F)cc3)c1)n2CCN1CCCC1=O	Vero cell	MTT	>62.5 µg/mL
COc1cc([C@@H]2c3cc4c(cc3[C@H](OC(C)=O)[C@@H]3COC(=O)[C@@H]23)OCO4)cc2c1OC1(N3CCOCC3)CCCCC1O2	P-388		4.33 µM
Nc1nc(F)nc2c1ncn2/C=C1\CC1CO	DAUDI		>50 µM
CCOC(=O)C(CCSC[C@H]1O[C@@H](n2ccc3c(N)ncnc32)[C@H](O)[C@@H]1O)NC(=O)COC	PRK/E6SM		>200 µg/mL
CCOC(=O)c1ccc2c(c1)nc(-c1ccc(N(C)C)cc1)n2CCN1CCCC1=O	Vero cell	MTT	>62.5 µg/mL
COC(=O)[C@@H]1[C@H](c2cc(OC)c(OC(C)=O)c(OC(C)=O)c2)c2cc3c(cc2C2=NOC[C@@H]21)OCO3	A549		20 µM

The last 9 rows once more:

smiles,cells,read by,value
CC1CCC(c2cc(C(=O)NN)nc3ccccc23)CC1,Mouse fibroblasts,MTT / absorbance,>200 µg/mL
COC(=O)[C@@H]1[C@H](c2cc(OC)c3nc4cc(C)c(C)cc4nc3c2)c2cc3c(cc2C2=NOC[C@@H]21)OCO3,MEL-28,,1 µM
OCc1cccc(Nc2ccnc3cc(Cl)ccc23)c1,HeLa cells,MTT,>100 µM
CCOC(=O)c1ccc2c(c1)nc(-c1cccc(-c3ccc(F)cc3)c1)n2CCN1CCCC1=O,Vero cell,MTT,>62.5 µg/mL
COc1cc([C@@H]2c3cc4c(cc3[C@H](OC(C)=O)[C@@H]3COC(=O)[C@@H]23)OCO4)cc2c1OC1(N3CCOCC3)CCCCC1O2,P-388,,4.33 µM
Nc1nc(F)nc2c1ncn2/C=C1\CC1CO,DAUDI,,>50 µM
CCOC(=O)C(CCSC[C@H]1O[C@@H](n2ccc3c(N)ncnc32)[C@H](O)[C@@H]1O)NC(=O)COC,PRK/E6SM,,>200 µg/mL
CCOC(=O)c1ccc2c(c1)nc(-c1ccc(N(C)C)cc1)n2CCN1CCCC1=O,Vero cell,MTT,>62.5 µg/mL
COC(=O)[C@@H]1[C@H](c2cc(OC)c(OC(C)=O)c(OC(C)=O)c2)c2cc3c(cc2C2=NOC[C@@H]21)OCO3,A549,,20 µM